PubChem BioAssay AID1259414, Drosophila RNAi Screening Center – 2018
The screen tested about 24,000 reagents; this is a random part of those with a known target gene and a result. Over the whole deposit, about 1,210 (5%) got an active call. 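Inactive calls also include excluded dsRNAs with several or no targets, genes unexpressed in JW18, and well A1, regardless of score.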 Entries without a mark were called inactive. The numbers tell different reagents against one gene apart. Names joined by + are all predicted targets of the reagent.

Test: 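Fly genes that alter Wolbachia amount inside host cells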 (primary screen)
Cell system: Drosophila JW18 cells infected with Wolbachia
Reagents: long dsRNA against Drosophila genes, 0.25 µg dsRNA per well of a 384-well plate
Timing: 5 days
Challenge: cells persistently infected with Wolbachia before knock-down; no added drug
Detection: 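Automated imaging of bacterial rRNA staining divided by host cell count, reported as plate-normalised robust z-score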
Reading the numbers: Wolbachia per cell robust z: higher = more Wolbachia per host cell than the plate typical
Rule for the call: 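Active if absolute robust z reaches 1.5 in two or more of three replicates, leaving out multi- or no-target dsRNAs, genes unexpressed in JW18 and A1 wells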

| target | reagent no. | Wolbachia per cell robust z, rep 1 | Wolbachia per cell robust z, rep 2 | Wolbachia per cell robust z, rep 3 |
| --- | --- | --- | --- | --- |
| ENGase | 1 | 0.457 | 0.133 | -1.39 |
| ENGase | 2 | -0.0905 | 0.792 | 0.426 |
| TwdlR | 1 | -0.424 | -0.833 | -1.18 |
| CG14459 | 1 | -0.556 | -0.112 | -2.06 |
| Topors | 1 | -0.742 | -0.113 | 0.412 |
| Mkp + CG34140 | 1 | -5.9 | 0.557 | -0.767 |
| CG9775 | 1 | -2.27 | -0.129 | -0.535 |
| CG9775 | 2 | -2.06 | -1.03 | -0.941 |
| TyrR | 1 | -0.178 | -0.718 | -0.216 |
| CG33111 | 1 | -0.236 | -0.318 | 0.578 |
| CG33111 | 2 | -2.38 | 0.915 | -0.681 |
| CG31174 | 1 | -1.03 | 0.573 | -0.2 |
| Seipin | 1 | 0.446 | 0.844 | 0.927 |
| CG31819 | 1 | 1.03 | -1.09 | -0.76 |
| CG31819 | 2 | -2.59 | 0.709 | 0.946 |
| Jon44E | 1 | 0.227 | 0.435 | 1.04 |
| Jon44E | 2 | 0.206 | -1.03 | -1.5 |
| CG5828 | 1 | 0.671 | 0.938 | 0.301 |
| CG5828 | 2 | 0.0822 | -0.248 | -0.691 |
| CG5828 | 3 | 0.401 | -0.732 | 1.26 |
| Orp8 | 1 | -1.98 | 0.0403 | 0.054 |
| Orp8 | 2 | -8.88 | -0.866 | 0.14 |
| Orp8 | 3 | -0.444 | -0.114 | 0.305 |
| CG13137 | 1 | 1.74 | -1.27 | 1.49 |
| CG6071 | 1 | 1.06 | -0.19 | -0.684 |
| robo1 | 1 | -6.19 | -0.469 | -0.973 |
| Obp83ef | 1 | -5.59 | 0.122 | -0.861 |
| Obp83ef | 2 | -1.46 | -1.2 | -10.4 |

3 successive reagents already listed:
| target | reagent no. | Wolbachia per cell robust z, rep 1 | Wolbachia per cell robust z, rep 2 | Wolbachia per cell robust z, rep 3 |
| --- | --- | --- | --- | --- |
| Mkp + CG34140 | 1 | -5.9 | 0.557 | -0.767 |
| CG9775 | 1 | -2.27 | -0.129 | -0.535 |
| CG9775 | 2 | -2.06 | -1.03 | -0.941 |
